From patent US20240123029

Biological target: T1, C-PTX3
T1 sequence: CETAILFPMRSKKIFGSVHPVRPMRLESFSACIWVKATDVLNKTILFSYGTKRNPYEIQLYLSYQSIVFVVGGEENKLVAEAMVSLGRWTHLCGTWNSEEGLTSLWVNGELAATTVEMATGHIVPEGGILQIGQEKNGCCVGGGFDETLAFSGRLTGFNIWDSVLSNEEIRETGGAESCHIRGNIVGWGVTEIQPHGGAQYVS

Biotinylated SARS-CoV-2 Nucleocapsid protein, His Tag
EC50 (read off the curve): 5 nM
